The test system of this data set is Caco-2 cells. Kind of data set: Permeability study using Caco-2 cells. The following applies: Caco-2, 1 and 2 h after exposure to 3 and 10 µmol/L CTVD; data not shown. Background: Passage across Caco-2 layers is used to estimate intestinal permeability.

One compound from article PMC6628624 (Toxins, 2019) can be followed below.

On to `COc1cc(=O)oc(/C=C/C=C/C=C/C(C)=C/[C@]2(C)O[C@H](C)[C@](C)(O)[C@H]2O)c1C` [CTVD, Citreoviridin], for which the “change in TEER (transepithelial electrical resistance) over time” value is given as “no marked change”.
